This test concerns the target T1, hemagglutinin (HA) of A/WSN/1933, on transfected HEK-293T cells (Influenza A virus A/WSN/1933 (H1N1), UniProt P03454).
T1 construct: source: HEK-293T, transfected with HA-expressing plasmid, on cells
The test is described as follows: fluorescence imaging with FRAP of labelled antibody on transfected cells. The conditions noted are these: one partner purified.

Sequences of proteins named here, by UniProt entry; tags and fusion partners are left off. Residues count along the entry.
UniProt P03454, 18-565: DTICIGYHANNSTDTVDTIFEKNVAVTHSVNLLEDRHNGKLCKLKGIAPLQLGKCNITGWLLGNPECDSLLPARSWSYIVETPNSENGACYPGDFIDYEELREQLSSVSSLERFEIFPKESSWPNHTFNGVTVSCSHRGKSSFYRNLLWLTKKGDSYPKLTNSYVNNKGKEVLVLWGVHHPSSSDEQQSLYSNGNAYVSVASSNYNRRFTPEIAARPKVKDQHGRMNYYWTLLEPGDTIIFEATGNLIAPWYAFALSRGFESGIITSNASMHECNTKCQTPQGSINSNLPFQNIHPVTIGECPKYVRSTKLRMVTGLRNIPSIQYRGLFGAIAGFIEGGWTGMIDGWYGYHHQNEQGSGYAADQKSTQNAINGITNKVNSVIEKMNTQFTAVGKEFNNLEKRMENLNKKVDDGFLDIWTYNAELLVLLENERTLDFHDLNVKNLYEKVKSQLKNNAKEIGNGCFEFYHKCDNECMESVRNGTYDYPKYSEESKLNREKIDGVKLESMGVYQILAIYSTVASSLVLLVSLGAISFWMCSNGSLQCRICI

B1: CR9114 scFv (scFv, V domains shown)
VH: QVQLVQSGAEVKKPGSSVKVSCKSSGGTSNNYAISWVRQAPGQGLDWMGGISPIFGSTAYAQKFQGRVTISADIFSNTAYMELNSLTSEDTAVYFCARHGNYYYYSGMDVWGQGTTVTVSS
VL: QSALTQPPAVSGTPGQRVTISCSGSDSNIGRRSVNWYQQFPGTAPKLLIYSNDQRPSVVPDRFSGSKSGTSASLAISGLQSEDEAEYYCAAWDDSLKGAVFGGGTQLTVL
notes: also called monovalent CR9114 scFv; CR9114 scFv 488
B1: the binding result was “binds”.

B2: CR9114 IgG (antibody, V domains shown)
VH: QVQLVQSGAEVKKPGSSVKVSCKSSGGTSNNYAISWVRQAPGQGLDWMGGISPIFGSTAYAQKFQGRVTISADIFSNTAYMELNSLTSEDTAVYFCARHGNYYYYSGMDVWGQGTTVTVSS
VL: QSALTQPPAVSGTPGQRVTISCSGSDSNIGRRSVNWYQQFPGTAPKLLIYSNDQRPSVVPDRFSGSKSGTSASLAISGLQSEDEAEYYCAAWDDSLKGAVFGGGTQLTVL
notes: also called bivalent CR9114 IgG; not shown: ybbR, C-terminal, kept; copies: 2 + 2
For the molecule B2, the binding result was “binds”.
